Experimental data published in article PMC10739260, “Shape-Based Virtual Screening of a Billion-Compound Library Identifies Mycobacterial Lipoamide Dehydrogenase Inhibitors” (ACS Bio & Med Chem Au, 2023).
pIC50: −log10 of the molar value. Where two headings read alike, the source gives them in different places.

Chains of the proteins cited; added tags and fusions are not shown.
UniProt P9WHH9, whole entry: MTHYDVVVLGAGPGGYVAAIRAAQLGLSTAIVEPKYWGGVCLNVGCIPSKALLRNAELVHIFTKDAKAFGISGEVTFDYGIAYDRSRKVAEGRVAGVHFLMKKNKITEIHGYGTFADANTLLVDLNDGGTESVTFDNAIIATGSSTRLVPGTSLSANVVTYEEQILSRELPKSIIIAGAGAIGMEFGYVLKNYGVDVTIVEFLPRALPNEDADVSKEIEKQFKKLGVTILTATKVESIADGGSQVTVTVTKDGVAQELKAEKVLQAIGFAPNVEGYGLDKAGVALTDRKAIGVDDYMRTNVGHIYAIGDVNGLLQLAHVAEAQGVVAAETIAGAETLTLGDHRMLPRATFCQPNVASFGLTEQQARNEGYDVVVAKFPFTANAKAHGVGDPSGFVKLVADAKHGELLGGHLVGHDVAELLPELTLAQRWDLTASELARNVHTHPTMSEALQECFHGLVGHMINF

How the values were obtained:
PDH complex = PDH complex (Mycobacterium tuberculosis, UniProt P9WHH9); experiment: PDH complex inhibition; type: biochemical; conditions: read-out: PDH IC50; Table S1, known actives used as probes in GPU Shape screen
Mtb = Mtb MIC assay (bacterial growth inhibition); type: cell-based, Mycobacterium tuberculosis; conditions: Table S1, known actives used as probes in GPU Shape screen
Mtb Lpd = Mtb Lpd (Mycobacterium tuberculosis, UniProt P9WHH9); experiment: Lpd enzyme assay (spectrophotometric, DTNB, lipoamide, NADH); type: biochemical; conditions: read-out: LPD IC50
[1] = Table S1, known actives used as probes in GPU Shape screen
[2] = Table S2, pre-existing SAR of sulfonamide series

CCN(CC(=O)Nc1ccn(C)c(=O)c1)S(=O)(=O)c1cc(C)cc2cn[nH]c12
pIC50 (PDH complex): 7.40
Mtb MIC (Mtb): 6 µM

Cc1cc(S(=O)(=O)N(C)CC(=O)Nc2ccc3c(c2)OCCN3C)c2[nH]ncc2c1
pIC50 (PDH complex): 7.30
Mtb MIC (Mtb): 3 µM
pIC50 (Mtb Lpd; [1]): 8.40

CN(CC(=O)Nc1ccc(N2CCOCC2)c(Cl)c1)S(=O)(=O)c1cc(Br)cc2cn[nH]c12
pIC50 (PDH complex): 7.00
Mtb MIC (Mtb): > 25 µM
pIC50 (Mtb Lpd; [1]): 8.40

CN(CC(=O)Nc1ccn(C)c(=O)c1)S(=O)(=O)c1cc(C(F)F)cc2cn[nH]c12
pIC50 (PDH complex): 6.80
Mtb MIC (Mtb): 6 µM
pIC50 (Mtb Lpd; [1]): 7.33

COc1cccc2[nH]c(CN(C)S(=O)(=O)c3cc(C)cc4cn[nH]c34)nc12
pIC50 (PDH complex): 8.00
Mtb MIC (Mtb): 50 µM
pIC50 (Mtb Lpd; [1]): 7.42

COc1ccc(NC(=O)CN(C)S(=O)(=O)c2cc(C)cnc2N)cc1Cl
pIC50 (Mtb Lpd; [2]): 7.15

CN(CC(=O)Nc1ccn(C)c(=O)c1)S(=O)(=O)c1cc(Br)cc2cn[nH]c12
Mtb MIC (Mtb): 6 µM

Cc1cc(S(=O)(=O)N(C)CC(=O)Nc2ccc3c(c2)OCCO3)c2[nH]ncc2c1
pIC50 (PDH complex): 7.30
Mtb MIC (Mtb): 25 µM
pIC50 (Mtb Lpd; [1]): 7.96

Cc1cc(S(=O)(=O)N(C)CC(=O)Nc2ccc3c(c2)OCCN3C2COC2)c2[nH]ncc2c1
pIC50 (PDH complex): 8.40
Mtb MIC (Mtb): 2 µM
pIC50 (Mtb Lpd; [1]): 7.55

Cc1cc(S(=O)(=O)N(C)CC(=O)Nc2ccn(C)c(=O)c2)c2[nH][nH]c(=O)c2c1
pIC50 (PDH complex): 7.00
Mtb MIC (Mtb): > 100 µM
pIC50 (Mtb Lpd; [1]): 7.15

Cc1cc(S(=O)(=O)N(C)CC(=O)Nc2ccn(C)c(=O)c2)c2[nH]nc(C)c2c1
pIC50 (PDH complex): 6.33
Mtb MIC (Mtb): 50 µM
pIC50 (Mtb Lpd; [1]): 7.18

Cc1cc(S(=O)(=O)N(C)CC(=O)Nc2ccc3c(c2)N(C)CCO3)c2[nH]ncc2c1
pIC50 (PDH complex): 7.30
Mtb MIC (Mtb): 13 µM
pIC50 (Mtb Lpd; [1]): 7.77

Cc1cc(S(=O)(=O)N(C)CC(=O)Nc2ccc(N3CCOCC3)c(Cl)c2)c2[nH]ncc2c1
pIC50 (PDH complex): 8.00
Mtb MIC (Mtb): 13 µM

COc1ccc(NC(=O)CN(C)S(=O)(=O)c2cccnc2N)cc1Cl
pIC50 (Mtb Lpd; [2]): 5.23

CN(CC(=O)Nc1ccn(C)c(=O)c1)S(=O)(=O)c1cccc2cn[nH]c12
pIC50 (Mtb Lpd; [2]): 5.74

Cc1cc(S(=O)(=O)N(C)CC(=O)Nc2ccc(N3CCN(C)CC3)c(Cl)c2)c2[nH]ncc2c1
pIC50 (PDH complex): 9.00
Mtb MIC (Mtb): 2 µM
pIC50 (Mtb Lpd; [1]): 7.36

Cc1cc(S(=O)(=O)N(C)CC(=O)Nc2ccc3ncccc3c2)c2[nH]ncc2c1
pIC50 (PDH complex): 8.00
Mtb MIC (Mtb): 3 µM
pIC50 (Mtb Lpd; [1]): 7.66

COc1ccc(NC(=O)CN(C)S(=O)(=O)c2cc(C)cc3cn[nH]c23)cc1Cl
pIC50 (PDH complex): 6.89
Mtb MIC (Mtb): 25 µM
pIC50 (Mtb Lpd; [1]): 7.70

CN(CC(=O)Nc1ccn(C)c(=O)c1)S(=O)(=O)c1cc(Cl)cc2cn[nH]c12
pIC50 (PDH complex): 6.96
Mtb MIC (Mtb): 13 µM
pIC50 (Mtb Lpd; [1]): 7.26

Cc1cc(S(=O)(=O)N(C)CC(=O)Nc2ccc3c(c2)OCCN3C2CCOCC2)c2[nH]ncc2c1
pIC50 (PDH complex): 8.40
Mtb MIC (Mtb): 1 µM
pIC50 (Mtb Lpd; [1]): 7.38
